Pooled drug test results. Numbers come from NIAID ChemDB, via PubChem.

Shared fields: whole-cell or culture tests; species: HIV-1

ECn: concentration that inhibits the pathogen or its effect by n%. Lines come from different laboratories, so protocols vary. Blank or dashed fields: not listed here.

| structure | cell line | read-out | strain or isolate | changes | conditions | method | result |
|---|---|---|---|---|---|---|---|
| Nc1nc2c(ncn2[C@H]2CO[C@@H](CO)O2)c(=O)[nH]1 | MT-2 | EC50 | IIIB |  |  | RT activity | 0.085 µM |
| C1CNCCNCCCN[C@H]([C@@H]2CNCCCNCCNCCCN2)CNC1 | MT-4 | EC90 | IIIB |  |  | cytopathic effect / MTT | 1.16 µM |
| COc1cccc(F)c1CCNC(=S)Nc1nccs1 | MT-4 | EC50 | IIIB |  |  | cytopathic effect | 0.32 µM |
| Nc1nc(N)c2ncn([C@H]3CO[C@@H](CO)O3)c2n1 | Jurkat cells | EC50 | IIIB |  |  | RT activity | 1.37 µM |
| c1cc(CN2CCCNCCNCCCNCC2)ccc1CN1CCCNCCNCCCNCC1 | PBMC | EC50 | RF X4 |  |  | antigen | 0.005 µg/mL |
| Nc1ncnc2c1ncn2CC(CF)OCP(=O)(O)O | CEM | EC50 | IIIB TIBO R82913 STR-1 (RT L100I Y181C) | RT-L100I Y181C |  | syncytia | 3 µM |
| Cc1cn([C@H]2C[C@H](N=[N+]=[N-])[C@@H](CO)O2)c(=O)[nH]c1=O | MT-4 | EC95 | A17 |  |  | p24 | 0.025 µM |
| Cc1c(O)cccc1C(=O)N[C@@H](CSc1ccccc1)[C@H](O)CN1C[C@H]2CCCC[C@H]2C[C@H]1C(=O)NC(C)(C)C | PBMC | EC90 | IIIB |  |  | p24 | 0.084 µM |
| Nc1ccn([C@H]2CC[C@@H](CO)O2)c(=O)n1 | CEM | EC50 | IIIB TIBO R82913 STR-B22 (RT L100I Y188H) | RT-L100I Y188H |  | syncytia | 0.014 µM |
| CCCc1nnc(C[C@H](C[C@H](O)CN2CCN(Cc3ccc(-c4ccc(Cl)cc4)o3)C[C@H]2C(=O)NCC(F)(F)F)C(=O)N[C@H]2c3ccccc3OC[C@H]2O)o1 | MT-4 | EC50 | NL4-3 WT |  |  | p24 | <0.008 µM |
| COC(=O)[C@H](C)NP(=O)(OC[C@@H]1C=C[C@H](n2cc(C)c(=O)[nH]c2=O)O1)Oc1ccc(Br)cc1 | PBMC | EC50 | X165-8 Clinical isolate ZDV-resistant | RT-D67N T69N K70R K103N Y181C T215F K219E |  | p24 | 0.013 µM |
| Cc1ccnc2c1NC(=O)c1cccnc1N2C1CC1 | MM + M/M | EC50 | ADA |  | clinical isolate | cytopathic effect / XTT | 0.2 µM |
| Cc1cn([C@@H]2O[C@H](CO[Si](C)(C)C(C)(C)C)C3(OS(=O)(=O)C=C3N)[C@H]2O[Si](C)(C)C(C)(C)C)c(=O)n(C)c1=O | CEM | EC50 | IIIB E-EBU(RT-Y181C) | RT-Y181C |  | syncytia | >50 µg/mL |
| Cc1cn([C@H]2C[C@H](N=[N+]=[N-])[C@@H](CO)O2)c(=O)[nH]c1=O | CEM + CEM-SS | EC50 | 205 |  |  | cytopathic effect / MTT | 0.006 µM |
| CCOCn1c(Sc2ccccc2)c(CC)c(=O)[nH]c1=O | CEM | EC50 | IIIB E-EBU(RT-Y181C) | RT-Y181C |  | syncytia | ≥20 µg/mL |
| Cc1ccnc2c1NC(=O)c1cccnc1N2C1CC1 | MAGI | EC50 | NNRTI-resistant (RT V106A) | RT-V106A |  | β-galactosidase | 8.2 µM |
| Cc1nnc(C[C@H](C[C@H](O)CN2CCN(C(C)(C)c3ncc(-c4ccc(F)cc4)o3)C[C@H]2C(=O)NCC(F)(F)F)C(=O)N[C@H]2c3ccccc3OC[C@H]2O)o1 | MT-4 | EC50 | K-60 Clinical isolate | PR-L10I M46I I54V Q58E L63P I64V V77I V82F I84V L90M I93L |  | p24 | <0.125 µM |
| Cc1cn([C@H]2C[C@H](N=[N+]=[N-])[C@@H](CO)O2)c(=O)[nH]c1=O | MT-4 | EC50 | IIIB |  |  | cytopathic effect / XTT | 0.01 µM |
| CCCc1nnc(C[C@H](C[C@H](O)CN2CCN(C(C)(C)c3ncc(-c4ccc(F)cc4)o3)C[C@H]2C(=O)NCC(F)(F)F)C(=O)N[C@H]2c3ccccc3OC[C@H]2O)o1 | MT-4 | EC50 | V-18 Clinical isolate | PR-L10I M36I N37D M46I R57K L63P A71V G73S I84V L90M I93L |  | p24 | <0.063 µM |
| CCc1csc(NC(=S)NCCc2ccccc2)n1 | MT-4 | EC50 | IIIB |  |  | cytopathic effect | 0.24 µM |
| O=[N+]([O-])c1ccccc1S(=O)(=O)c1cc(Cl)cc2c1NCCC2 | CEM + CEM-SS | EC50 | IIIB |  |  | XTT | 0.3 µM |
| O=c1[nH]cnc2c1ncn2C1CC[C@@H](CO)O1 | Primary T lymphocytes | EC90 |  | A62V V75I F77L F116Y Q151M |  | p24 / ELISA | 83.5 µM |
| COc1cncc(-c2cnc(C(C)(C)N3CCN(C[C@@H](O)C[C@@H](Cc4nnc(-c5ccccc5)o4)C(=O)N[C@H]4c5ccccc5OC[C@H]4O)[C@H](C(=O)NCC(F)(F)F)C3)o2)c1 | MT-4 | EC95 | NL4-3 WT |  |  | p24 | 0.125 µM |
| CCc1cc(NCc2nc3c(C)ccc(C)c3o2)c(=O)[nH]c1C | MT-4 | EC50 | rHXB2 |  |  | p24 | <0.05 µM |
| Cc1cn([C@H]2C=C[C@@H](CO)O2)c(=O)[nH]c1=O | Primary T lymphocytes | EC50 |  | A62V V75I F77L F116Y Q151M |  | p24 / ELISA | 6.8 µM |
| CNc1ccc(Cl)cc1S(=O)(=O)c1ccccc1[N+](=O)[O-] | CEM + CEM-SS | EC50 | E BPTU-resistant |  |  | XTT | >61 µM |
| CC(C)(C)OC(=O)N[C@@H](Cc1ccccc1)[C@H](O)CNC[C@@H](O)[C@H](Cc1ccc(OCC(=O)N2CCOCC2)cc1)NC(=O)OC(C)(C)C |  | EC50 | BMS-186318-resistant (PR A71T V82A) | PR-A71T V82A |  |  | 3.11 µM |
| Nc1ccn([C@H]2CC[C@@H](CO)O2)c(=O)n1 | MT-4 | EC50 | IIIB 3TC (RT-M184V) | RT-M184V |  | p24 | 2.5 µM |
| CCn1c(=O)c(C)cn([C@@H]2O[C@H](CO[Si](C)(C)C(C)(C)C)C3(OS(=O)(=O)C=C3N)[C@H]2O[Si](C)(C)C(C)(C)C)c1=O | CEM | EC50 | IIIB TSAO-T(RT-E138K) | RT-E138K |  | syncytia | >50 µM |
| CCOCn1c(Cc2cc(C)cc(C)c2)c(CC)c(=O)[nH]c1=O | CEM | EC50 | IIIB BHAP(RT-L100I) | RT-L100I |  | syncytia | 0.03 µg/mL |
| Cc1cn([C@H]2C[C@H](N=[N+]=[N-])[C@@H](CO)O2)c(=O)[nH]c1=O | HT4 + HT4-6C | EC50 | HXB2-D (RT-WT |  |  | plaque count | 0.005 µM |
| S=C(NCCc1ccccc1)Nc1ccc(Cl)cn1 | MT-4 | EC50 | IIIB |  |  | cytopathic effect | 0.03 µM |
| O=C1Nc2ccc(Cl)cc2[C@@](C#CC2CC2)(C(F)(F)F)O1 | Primary T lymphocytes | EC90 |  | M184V |  | p24 / ELISA | 0.08 µM |
| CCc1cc(NCc2nc3ccccc3o2)c(=O)[nH]c1C | MT-4 | EC50 | rA17 |  |  | p24 | <200 µM |
| CC(=O)c1ccc(C)cc1NC(C(N)=O)c1c(Cl)cccc1Cl | CEM | EC50 | HXB2 (RT E138A S162C E169D T200A L214F) Clinical isolate | RT-E138A S162C E169D T200A L214F |  | syncytia | 0.023 µM |
| Cc1cn([C@@H]2O[C@H](CO[Si](C)(C)C(C)(C)C)C3(OS(=O)(=O)C=C3N)[C@H]2O[Si](C)(C)C(C)(C)C)c(=O)n(C)c1=O | CEM | EC50 | IIIB TIBO R82913 STR-B02 (RT L100I E138K) | RT-L100I E138K |  | syncytia | >50 µM |
| C(CCCN1CCCNCCNCCCNCC1)CCN1CCCNCCNCCCNCC1 | MT-4 | EC50 | IIIB |  |  | cytopathic effect / MTT | 0.616 µM |
| O=C(N[C@H]1c2ccccc2OC[C@H]1O)[C@H](Cc1nnco1)C[C@H](O)CN1CCN(Cc2ccc(-c3ccc(Cl)cc3)o2)C[C@H]1C(=O)NCC(F)(F)F | MT-4 | EC95 | V-18 Clinical isolate | PR-L10I M36I N37D M46I R57K L63P A71V G73S I84V L90M I93L |  | p24 | 0.125 µM |
| Cc1c(Sc2ccccc2)n(COCCO)c(=O)[nH]c1=O | CEM | EC50 | IIIB E-EBU(RT-Y181C) | RT-Y181C |  | syncytia | >100 µg/mL |
| Cc1[nH]c(=O)c(F)cc1Cn1cnc(C(F)(F)C(F)F)c(Oc2cc(C(F)F)cc(C#N)c2C)c1=O | MT4-GFP | EC50 |  |  |  | GFP | 0.131 µM |
| CC(C)=CCN1Cc2cc(Cl)cc3[nH]c(=S)n(c23)C[C@@H]1C | MT-4 | EC50 | IIIB Recombinant wild type |  |  | cytopathic effect / MTT | 0.149 µM |
| C1CNCCNCCCN(CCCN2CCCNCCNCCCNCC2)CCNC1 | MT-4 | EC90 | HE |  |  | cytopathic effect / MTT | 1.19 µM |
| Cc1cn([C@H]2C[C@H](N=[N+]=[N-])[C@@H](CO)O2)c(=O)[nH]c1=O | CEM | EC50 | IIIB TIBO R82913 STR-1 (RT L100I Y181C) | RT-L100I Y181C |  | syncytia | 0.009 µM |
| CC(C)(C)OC(=O)N[C@@H](Cc1ccccc1)[C@H](O)CNC[C@@H](O)[C@H](Cc1ccc(OCC(=O)N2CCOCC2)cc1)NC(=O)OC(C)(C)C | PBMC | EC50 | A018A |  |  | p24 | 0.04 µM |
| Cc1cn([C@H]2C[C@H](N=[N+]=[N-])[C@@H](CO)O2)c(=O)[nH]c1=O | PBMC | EC50 | VIHU (non-syncytium-inducing) |  |  | cytopathic effect / XTT | 0.04 µM |
| Cc1nnc(C[C@H](C[C@H](O)CN2CCN(Cc3ccc(-c4ccc(Cl)cc4)o3)C[C@H]2C(=O)NCC(F)(F)F)C(=O)N[C@H]2c3ccccc3OC[C@H]2O)o1 | MT-4 | EC50 | NL4-3 WT |  |  | p24 | <0.063 µM |
| O=c1[nH]cnc2c1ncn2[C@H]1CC[C@@H](CO)O1 | MT-4 | EC50 | Recombinant mutant | RT-A98S E138A |  | cytopathic effect / MTT | 10.6 µM |
| CC(C)(c1ncc(-c2ccc(F)cc2)o1)N1CCN(C[C@@H](O)C[C@@H](Cc2nnc(-c3ccccc3)o2)C(=O)N[C@H]2c3ccccc3OC[C@H]2O)[C@H](C(=O)NCC(F)(F)F)C1 | MT-4 | EC50 | V-18 Clinical isolate | PR-L10I M36I N37D M46I R57K L63P A71V G73S I84V L90M I93L |  | p24 | <0.063 µM |
| Nc1ccn([C@H]2CC[C@@H](CO)O2)c(=O)n1 | MT-4 | EC50 | IIIB Recombinant wild type |  |  | cytopathic effect / MTT | 0.078 µM |
| c1cc(CN2CCCNCCNCCCNCC2)ccc1CN1CCCNCCNCCCNCC1 | PBMC | EC50 | SW23 CLADE C R5 |  |  | p24 | >0.5 µM |
| CCc1cc(NCc2nc3c(Cl)ccc(Cl)c3o2)c(=O)[nH]c1C | CEM | EC50 | IIIB E-EBU(RT-Y181C) | RT-Y181C |  | syncytia | >10 µg/mL |
| CCn1c(=O)c(C)cn([C@@H]2O[C@H](CO[Si](C)(C)C(C)(C)C)C3(OS(=O)(=O)C=C3N)[C@H]2O[Si](C)(C)C(C)(C)C)c1=O | MT-4 | EC50 | Recombinant mutant | RT-A98S E138A |  | cytopathic effect / MTT | 0.906 µM |